One molecule from ChEMBL document CHEMBL4421733, “Inhibitors of eya2” (2012) can be followed below.

Activity calls are given as the source filed them. The calls are words filed in the database; no cut-off is given here.

The experiment concerns the target T1, Protein phosphatase EYA2 (Homo sapiens) (UniProt O00167).
T1 sequence (whole entry): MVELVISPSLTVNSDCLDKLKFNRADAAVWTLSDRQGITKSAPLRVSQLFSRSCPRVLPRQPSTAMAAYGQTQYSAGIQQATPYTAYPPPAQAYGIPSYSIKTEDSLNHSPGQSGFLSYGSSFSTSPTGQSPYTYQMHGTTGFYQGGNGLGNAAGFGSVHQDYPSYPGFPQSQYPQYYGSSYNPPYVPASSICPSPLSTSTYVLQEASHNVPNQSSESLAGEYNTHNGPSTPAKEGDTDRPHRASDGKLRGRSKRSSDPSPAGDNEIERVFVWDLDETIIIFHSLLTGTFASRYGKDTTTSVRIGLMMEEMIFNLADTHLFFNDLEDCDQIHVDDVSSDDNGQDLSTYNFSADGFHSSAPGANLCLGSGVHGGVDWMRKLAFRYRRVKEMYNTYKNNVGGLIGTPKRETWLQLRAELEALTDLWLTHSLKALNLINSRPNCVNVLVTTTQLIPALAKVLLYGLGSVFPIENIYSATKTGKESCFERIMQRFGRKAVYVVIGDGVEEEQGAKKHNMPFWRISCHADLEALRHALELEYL
The experiment is described as follows: Inhibition of GST-fused human Eya2 ED (253 to 538 residues) expressed in Escherichia coli at […] pre-incubated for 10 mins followed by OMFP substrate addition and further incubated for 30 mins by fluorescence based assay.

For the molecule `O=[As]c1ccccc1` (stereo unspecified), the inhibition result was “inactive”.
